{
  "source": "patent US6841368B1",
  "about": "“Enzymatic production of difructose dianhydride IV from sucrose and relevant enzymes and genes coding for them” (priority 1999, dated 2005)",
  "type": "biochemical, A. ureafaciens K2032",
  "details": "purified enzyme",
  "protocol": "A. ureafaciens K2032 was inoculated in a selective broth containing levan as a major carbon source and cultured at 30° C. for 72 hours in an incubator. Investigation into the growth and levan fructotransferase activity of the bacteria provided the knowledge that the largest enzyme activity is obtained after 10 hours of the incubation. From the culture incubated for 10 hours, the enzyme was purified (FIG. 5). In this regard, the purification was achieved by successively using acetone precipitation, ion exchange chromatography (DEAE 650-M and Mono Q), and gel filtration chromatography, resulting in producing levan fructotransferase with a specific activity of 2269 U/mg protein at an amount of 1.1 mg at a yield of 29.8% (Table 8).\nThe purified enzyme was 51,000 in molecular weight as measured by SDS-PAGE while being measured to have a molecular weight of 96,000 by gel filtration chromatography. Thus, it was identified as being a dimer in aqueous conditions. […] Also, it was of optimal activity at 55° C. […] Whereas being inhibited by Mn^2+, Fe^2+ and Hg^2+, the activity of the enzyme was enhanced by […] and Ca^2+.\nThe newly isolated levan fructotransferase structural gene is composed of 1566 bp which corresponds to 521 aa. […]",
  "data": [
    {"molecule": "levan fructotransferase: enzyme purified from A. ureafaciens K2032 that produces DFA IV from levan; SEQ ID NO: 1 (protein, Arthrobacter ureafaciens K2032) MTPAISRRAVLQGAGAGALALIFGGAVPPAARASAPGSLRAVYHMTPPSGWLCDPQRPVTTHGAYQLYYLHSDQNNGPGGWDHASTTDGVAFTHHGTVMPLRPDFPVWSGSAVVGTANTAGFGAGAVVALATQPTDGVRKYQEQYLYWSTDGGFTFTALPDPVIVNTDGRAATTPAEIENAEWFRDPKIHWDTARGEWVCVIGRLRYAAFYTSPNLRDWTLRRNFDYPNHALGGIECPDLFEITADDGTRHWVLAASMDAYGIGLPMTYAYWTGTWDGEQFHADDLTPQWLDWGWDWYAAVTWPSIDAPETKRLAIAWMNNWKYAARDVPTDASDGYNGQNSIVRELRLARQPGGWYTLLSTPVAALTNYVTATTTLPDRTVDGSAVLPWNGRAYEIELDIAWDTATNVGISVGRSPDGTRHTNIGKYGADLYVDRGPSDLAGYSLAPYSRAAAPIDPGARSVHLRILVDTQSVEVFVNAGHTVLSQQVHFAEGDTGISLYTDGGPAHFTGIVVREIGQAI", "values": [
      {"measurement": "Temperature of optimal activity", "result": 55, "unit": "°C"},
      {"measurement": "pH of optimal activity", "result": "~6.0"}
    ]}
  ]
}
